Source: ChEMBL document CHEMBL4342517, “Design, Synthesis, and Mechanism Study of Benzenesulfonamide-Containing Phenylalanine Derivatives as Novel HIV-1 Capsid Inhibitors with Improved Antiviral Activities” (J Med Chem, 2020)

Columns and labels:
[1] = in vitro; conditions: human, liver microsomes
[2] = in vitro; conditions: human, liver microsomes; remark: listed apart in the source

O=C(O)Cc1ccccc1Nc1c(Cl)cccc1Cl [DICLOFENAC]
remaining at 1 h [1]: 94.8%
remaining at 1 h [2]: 5.9%
